# According to US9931320B2, “Parasiticidal oral veterinary compositions comprising systemically-acting active agents, methods and uses thereof” (MERIAL INC., priority 2012, dated 2018):
# Experiments:
# [1] = tested on: Toxocara canis (roundworm); experiment: Efficacy against Toxocara canis (roundworm) in dogs (Example 13); type: in vivo; settings: after 8 days; treated on Day 0; 0.5 mg/kg milbemycin oxime (Table 11) or 0.5 mg/kg milbemycin oxime and 2.5 mg/kg Compound A (Table 12); nine infected Beagle dogs per group
# [2] = tested on: Dirofilaria immitis (heartworm); experiment: Efficacy against Dirofilaria immitis (heartworm) in dogs (Example 16); settings: after 119 days; treated on Day 0; 0.5 mg/kg milbemycin oxime (Table 33) or 0.5 mg/kg milbemycin oxime and 2.5 mg/kg Compound A (Table 34); infected dogs
substance,measurement,setting,value
milbemycin oxime,Adult T. canis worms found,[1],No worms were found in any dog
same,Adult D. immitis worms recovered,[2],No worms were recovered
